# In PubChem BioAssay AID624173 (National Center for Advancing Translational Sciences (NCATS), 2012):
# The list shows a part of the results, in another mix than the full data. The source made the active and inactive calls. The call rests on the fitted dose curve; in most records, active means well fitted inhibition curve with a large enough effect; inconclusive means small, poorly fitted or top-dose-only effect; inactive means flat fitted curve, though single readings scatter.
# Biological target: pyruvate kinase (Trypanosoma brucei) (UniProt Q57TT1)
# Assay: qHTS of Trypanosoma Brucei Inhibitors; further: nearly all actives have a fitted effect of over 50% in size
# Details: TbPYK enzyme, Kinase-Glo Plus ATP luminescence, 45 min; at 76.8 µM (top of the series)
# On the % scale 0 is the no-effect control and ±100 the full control effect.
row,Structure (SMILES),"activity, negative = inhibition"
1,CC(C)(C)OC(=O)N1CCC(N(C(=O)c2ccccc2)c2ccc(Cl)cc2)CC1,inactive: 0.474%
2,O=C(NCC1(N2CCOCC2)CCCCC1)c1ccc([N+](=O)[O-])cc1,inactive: -0.085%
3,O=C(NCC1(N2CCOCC2)CCCCC1)c1ccccc1[N+](=O)[O-],inactive: -9.35%
4,N#Cc1ccc(C(=O)NCC2(N3CCCCC3)CCCCC2)cc1,inactive: 2.38%
5,CCOC(=O)C(CC)C1=NC(C)(C)Cc2ccccc21.O=[N+]([O-])c1cc([N+](=O)[O-])c(O)c([N+](=O)[O-])c1 (configuration not stated),inactive: -2.5%
6,O=C(NCC1(N2CCOCC2)CCCCC1)c1ccccc1,inactive: 1.26%
7,Cc1cc(N(CCCl)CCCl)ccc1C=O,inactive: -8.42%
8,CCCN1CCC(Nc2cc(OC)cc(OC)c2)CC1,inactive: -2.59%
9,O=c1[nH]c2ccccc2n1C1CCN(C(c2ccccc2)c2nnnn2C2CCCC2)CC1 (configuration not stated),inactive: 1.4%
10,c1ccc(CN2CCC(Nc3ccccc3)CC2)cc1,inactive: 1.43%
11,CN(C)C1(CNC(=O)c2cccc(C#N)c2)CCCCC1,inactive: 8.44%
12,CC(C)(C)n1nnnc1C(c1cccc2ccccc12)N1CCC(n2c(=O)[nH]c3ccccc32)CC1 (configuration not stated),inactive: 2.89%
13,O=C(NCC1(N2CCOCC2)CCCCC1)c1cc(Br)ccc1Cl,inactive: -5.05%
14,COc1cc(C(=O)NCC2(N3CCOCC3)CCCCC2)cc(OC)c1C,inactive: 1.27%
15,CCCCn1nnnc1C(c1ccccc1)N1CCC(n2c(=O)[nH]c3ccccc32)CC1 (configuration not stated),inactive: 1.66%
16,O=c1[nH]c2ccccc2n1C1CCN(C(c2ccnc3ccccc23)c2nnnn2C2CCCC2)CC1 (configuration not stated),inactive: 1.12%
17,COc1ccc(C(=O)NCC2(N3CCOCC3)CCCCC2)cc1OC,inactive: 2.8%
18,O=c1[nH]c2ccccc2n1C1CCN(C(c2cccs2)c2nnnn2C2CCCCC2)CC1 (configuration not stated),inactive: 4.96%
19,N/C(=N\O)c1c(N)no[n+]1[O-],inactive: -4.32%
20,CCOC(=O)N1CCC(Nc2ccc(C)cc2)CC1,inactive: -10.2%
21,COc1cccc(C(c2nnnn2C(C)(C)C)N2CCC(n3c(=O)[nH]c4ccccc43)CC2)c1OC (configuration not stated),inactive: -6.96%
22,CCCCn1nnnc1C(c1cccc(OC)c1OC)N1CCC(n2c(=O)[nH]c3ccccc32)CC1 (configuration not stated),inactive: 4.51%
23,O=c1[nH]c2ccccc2n1C1CCN(C(c2cccs2)c2nnnn2C2CCCC2)CC1 (configuration not stated),inactive: -0.249%
24,O=C(O)c1cccc(Nc2c([N+](=O)[O-])cc([N+](=O)[O-])cc2[N+](=O)[O-])c1,inactive: -0.0618%

row,Structure (SMILES),"activity, negative = inhibition"
1,CCc1cc(C(=O)NCC2(N3CCCCC3)CCCCC2)sc1C,inactive: -5.74%
2,O=C(OC1CN2CCC1CC2)C1c2ccccc2C=Cc2ccccc21 (configuration not stated),inactive: -1.08%
3,CN1CCC(Nc2ccc(F)c(Cl)c2)CC1,inactive: -9%
4,CCOc1ncccc1C(=O)NCC1(N2CCOCC2)CCCCC1,inactive: 6.47%
5,O=c1[nH]c2ccccc2n1C1CCN(C(c2cc3ccccc3o2)c2nnnn2C2CCCC2)CC1 (configuration not stated),inactive: -1.03%
6,CCCOc1ccc(C(=O)NCC2(N(C)C)CCCCC2)cc1,inactive: 0.339%
7,NN(c1ccccc1)C1CCN(CCc2ccccc2)CC1,inactive: -12.5%
8,O=C(O)C1(Nc2ccccc2)CCN(Cc2ccccc2)CC1,inactive: 0%
9,CC(C)(C)OC(=O)N1CCC(Nc2ccccc2)CC1,inactive: 5.01%
10,CCC(CO)(C(=O)OC1CN2CCC1CC2)c1ccccc1 (configuration not stated),inactive: -0.142%
11,COc1cccc(C(=O)N(c2cc(C)cc(C)c2)C2CCN(C(=O)OC(C)(C)C)CC2)c1,inactive: -9.15%
12,COc1cc(OC)cc(C(=O)NCC2(N3CCOCC3)CCCCC2)c1,inactive: -0.389%
13,COc1cccc(C(c2nnnn2C2CCCC2)N2CCC(n3c(=O)[nH]c4ccccc43)CC2)c1OC (configuration not stated),inactive: 3.69%
14,COc1cc(C(=O)NCC2(N3CCOCC3)CCCCC2)cc(OC)c1OC,inactive: -3.46%
15,CN1CCC(Nc2ccc(Cl)cc2)CC1,inactive: 0.392%
16,COc1cc(OC)cc(C(=O)NCC2(N3CCCCC3)CCCCC2)c1,inactive: 2.78%
17,O=c1[nH]c2ccccc2n1C1CCN(C(c2ccnc3ccccc23)c2nnnn2C2CCCCC2)CC1 (configuration not stated),inactive: -1.58%
18,CCC(c1nnnn1C1CCCCC1)N1CCC(n2c(=O)[nH]c3ccccc32)CC1 (configuration not stated),inactive: -6.53%
19,CN(C)C1(CNC(=O)c2ccc(C(C)(C)C)cc2)CCCCC1,inactive: 2.75%
20,COc1cccc(C(c2nnnn2C2CCCCC2)N2CCC(n3c(=O)[nH]c4ccccc43)CC2)c1OC (configuration not stated),inactive: -4.91%
21,CC(=O)N(c1ccccc1)C1CCNCC1,inactive: -7.12%
22,Cc1ccc(NC2(C#N)CCN(Cc3ccccc3)CC2)cc1,inactive: -4.39%
23,Fc1ccccc1NC1CCN(Cc2ccccc2)CC1,inactive: 14.3%
